# Test results as given in EP1367044B1, “Calixarene-derivatives having anti-viral activity” (Aids Care Pharma Limited, priority 2002, dated 2003).
# Where two headings read alike, the source gives them in different places.
# Assays:
# wild-type HIV-1(111a) = conditions: CEM cells, 4 days incubation at 37°C, syncytium formation
# gp120/CD4 binding = gp120/CD4 binding (UniProt P01730+P03375); assay: Test 1: inhibition of gp120/CD4 binding, recombinant proteins in an immunoassay format; conditions: for activity compared with AC-1 (1151c): comparison in words, results from both tests were comparable; for EC50: read-out: Test 1 EC50, concentration which reduces gp120 interaction with CD4 by 50%
# [1] = tested form: K salt (octapotassium)
# [2] = tested form: K salt (tetrapotassium)
SMILES,Test 2 EC50 (wild-type HIV-1(111a); [1]),activity compared with AC-1 (1151c) (gp120/CD4 binding; [1]),EC50 (gp120/CD4 binding; [1]),Test 2 EC50 (wild-type HIV-1(111a); [2]),activity compared with AC-1 (1151c) (gp120/CD4 binding; [2]),EC50 (gp120/CD4 binding; [2])
O=C(O)COc1cc(OCC(=O)O)c2cc1C(c1ccc(F)cc1)c1cc(c(OCC(=O)O)cc1OCC(=O)O)C(c1ccc(F)cc1)c1cc(c(OCC(=O)O)cc1OCC(=O)O)C(c1ccc(F)cc1)c1cc(c(OCC(=O)O)cc1OCC(=O)O)C2c1ccc(F)cc1 (stereo not drawn),≥20 µg/mL,much less active,75 µM,,,
O=C(O)COc1c(O)c2cc(c1O)C(c1ccc(F)cc1)c1cc(c(O)c(OCC(=O)O)c1O)C(c1ccc(F)cc1)c1cc(c(O)c(OCC(=O)O)c1O)C(c1ccc(F)cc1)c1cc(c(O)c(OCC(=O)O)c1O)C2c1ccc(F)cc1 (stereo not drawn),,,,10 µg/mL,slightly less active,5 µM
